Series [1] deals with swine kidney cells (PK15 cell line). The series is described as follows: cytotoxicity (CSFV example). The following applies: read-out: cytotoxicity CC50; CSFV example (Table 2).
Series [2] relates to swine alveolar macrophages (PAM cell line). The series is described as follows: cytotoxicity (ASFV example). The note with it: read-out: cytotoxicity CC50; ASFV example (Table 1).
The subject of series [3] is Feline Infectious Peritonitis Virus (FIPV). The series is described as follows: FIPV infection inhibition in FCWF-4 cells (realtime RT-qPCR).
Series [4] concerns hamster kidney cells (BHK-21 cell line). The series is described as follows: cytotoxicity (FMDV example). The note with it: read-out: cytotoxicity CC50; FMDV example (Table 10).

Consider `O=c1[nH]c(=O)c2ncn([C@@H](CO)OC(CO)CO)c2[nH]1`, for which the CC50 in series [1], in series [2] and in series [4] was more than 10 mM in each case. Besides, in series [3], the IC50 was less than 1.02 mM.
For `O=C[C@@H](CO)O[C@H](C=O)n1cnc2c(=O)[nH]c(=O)[nH]c21`, the half-maximal cytotoxic concentration (CC50) in series [1] and in series [2] was more than 10 mM each time.
For the compound `Nc1nc2c(ncn2[C@@H](CO)OC(CO)CO)c(=O)[nH]1`, the 50% cytotoxic concentration (CC50) in series [1], in series [2] and in series [4] was more than 10 mM in each case.
For the compound `Nc1nc2c(ncn2[C@@H](C=O)O[C@@H](C=O)CO)c(=O)[nH]1`, the CC50 in series [1], in series [2] and in series [4] was more than 6 mM in each case.
Regarding `O=c1[nH]cnc2c1ncn2[C@@H](CO)OC(CO)CO`, the CC50 in series [1], in series [2] and in series [4] was more than 10 mM throughout.
With `O=C[C@@H](CO)O[C@H](C=O)n1cnc2c(=O)[nH]cnc21`, the cytotoxic concentration (CC50) in series [1], in series [2] and in series [4] was more than 10 mM each time.

One may read the CC50 as the concentration giving 50% cytotoxicity. The term IC50 denotes the concentration that gives 50% inhibition. Lower therefore signals greater potency.

These data come from patent US20260382619A1.
